Human monoclonal antibodies against the spike receptor-binding domain (heavy:light variable regions). IC50 against pseudoviruses bearing the spike of naturally observed variants; lower = stronger; >10 µg/ml means not reached at the top dose. No active / inactive call. The stated detection limit is 0.0005 µg/ml; values near or below 0.001 µg/ml lie at the floor of the assay. Where only a bound is given, the exact number is not on record here.

To fix the notation:
B1: BD55-6618 (protein)
chain 1: QVQLVQSGAEVKKPGSSVKVSCKASGGTLSTHGFNWVRQAPGQGLEWMGRIIPLLGVPQYAQNFQGRVTITADKSTRTTYMELSSLTSEDTAVYYCARDSLNSCSAGTCDRFYWGQGTLVTVSS
chain 2: DIVMTQSPDSLAVSLGERATINCKSSQTILYNSNNKNYLAWYQQKPGQPPKLLIYWASARESGVPDRFSGSGSGTDFTLTISSLQAEDVAVYYCQQYYSTPLTFGGGTKVEIK
B2: BD55-6638 (protein)
chain 1: QLQLQESGPGLVKPSETLSLTCIVSGASISSTSHYWGWIRQPPGKGLEWLGSIYYSGSTYYNPSLRSRVTISVDTSKNQFSLKLSSVTAADAAVYFCARHLGADREERLTSPWYDYYTGGHFDLWGRGTLVTVSS
chain 2: QSVLTQPPSVSGAPGQRVTISCVGSSSNIGAGYDVHWYQQLPGAAPKVLIYGNTNRPSGVPDRLSASKSGTSASLAITGLQAEDEADYYCQSYDSRLSGWVFGGGTKLTVL
B3: BD55-6630 (protein)
chain 1: QVQLVESGGGVVQPGRSLRLSCAASGFIFGDYDMHWVRQAPGKGLEWMAVIWYDGSEQYYGDSVKGRFTISRDNSRNTLYLQMNSLRAADTAVYYCARLSTERKYSGYDHLSQEPNIWGQGTLVTVSS
chain 2: SSQLTQDPAVSVALGQTVRITCQGDGLRSYYATWTQQKPGQAPIVVIYGKNKRPSGIPDRFSGSDSGNTASLTITGAQAEDEADYYCSSRDRSDYQYVFGSGTKVTVL
B4: BD55-6627 (protein)
chain 1: QVKLLQSGSELKKPGASVKVSCKASGYTFTAYAVNWVRQAPGQGLEWMGWIDTNTGIPTYAQGFTGRFVLSLDTSVSTAYVLISSLKAEDTAVYYCARADRNYFGYEAFDIWGQGTMVTVSS
chain 2: DIQMTQSPSSLSASVGDRVTITCRASQSISNYLNWYQQKPGKAPNLLISAASSLQSGVPSRFSGSGSETDFTLTIYSLQPEDFATYYCQQSYSSHLLTFGGGTKVE
B5: BD55-6637 (protein)
chain 1: QVQLQESGPRLVKPSQTLSLTCTVSGDSISSGNYYWSWMRQSAGKGLEWIGRIYSRGSSKYTNNNPSLESRVTISVDTSKNQFSLKLNSVTAADTAVYYCARGGCDTTSCFGFYFYAMDVWGQGTTVSVSS
chain 2: DIQMTQSPSSLSASVGDRVTITCQASHDINIYLNWYQQKSGTPPKLLIYDASKLQTGVPSRFSGTASGTHFTFTISSLQPEDFATYFCQQYSNLPLTFGPGTKVDIK
B6: BD55-6602 (protein)
chain 1: EVHLVESGGGLVQPGRSLRLSCTASGFTFEDYAMNWVRQAPGKGLEWVSGISWNSGTIAYADSVKGRFTMSRDNDKKSLYLQMNSLRSEDTALYYCAKGRVNWVVTFMDVWGQGTTVTVSS
chain 2: EIVMTQIPLSLSVTPGQPASISCKSSQSLLYSDGKTYVNWYLQKPGQSPQLLIYELSNRFSGVPDRFSGSGSGTDFTLKISRVEAEDVGVYYCMQSIQFPLTFGGGTKVEIK
B7: BD55-6608 (protein)
chain 1: EVQLVESGGGLVQPGGSLRLSCEASGFSFSKYAMHWVRQAPGKGLEYVSGISTNGGGTYNEIPMKGRVTISRDNSKNTLYLQMDSLVPEDTAVYYCARDVGSTWYADAFDVWGQGTMVTVSS
chain 2: DIQMTQSPSSLSASVGDRVTITCRASQSIRNYLNWYQQKPGKAPKLLIYAASSLQSGVPSRFSGSGSGTDFTLTISRLQPDDFATYYCQQSYVSPTLTFGGGTKVEI
B8: BD55-6641 (protein)
chain 1: QVQMVQSGAEVKKPGASVKVSCKTSGFTFTSYDINWVRQSPGQGLEWMGWMNPDTGDTGYGHQFQGRVTMTRSTSTSTAYMELSSLRSEDTAVYYCARRCTSCGYYYYYAVDVWGQGTTVTVSS
chain 2: DIQMTQSPSSLSASVGDRVSITCRASQSINTYLNWYQQKPGKAPKLLICDASTLQSGVPSRFSGSGSGTDFTLTISGLQPEDFATYYCQQSYSFPPTFGPGTTVDIK
B9: BD55-1274 (protein)
chain 1: EVQLVESGGGLVQPGGSLRLSCAASGFAFGRYWMHWVRQAPGKGLVWVSRINNDGSSTSFADSVKGRFTMSRDNAKNTLYLQMNSLRADDTAVYYCARAPPGSGPLPFDYWGQGTLVTVSS
chain 2: SYVLTQPPSVSVAPGKTARITCGTSNIGSDTVHWYQQKSGQAPVLVMSYANDRPSGIPERFSGSNSGSTATLTISRVEAGDEADYYCQVWASSGDPLYVFGTGTKVAVL
B10: BD55-6613 (protein)
chain 1: EVQLVQSGAEVKKPGESLRISCKGSGYTFTTYWISWVRQMPGRGLEWLGRIDPSDSDADYSPSFQGHVTFSSDKSISTAYLQWSRLKASDTAVYYCARHFYNYGSGSYVFEFWGQGTQVTVSS
chain 2: DIQMTQSPSSLSASAGDRVTITCQASQDIRKFLNWYQQKPGKAPSLLIYDASNLAPGVPSRFSGSGSGTDFTFTISSLQPEDVATYYCQHYDNLPLTFGGGTRVDIK
B11: BD55-6626 (protein)
chain 1: EVQLVESGGGLVQPGGSLRLSCAASGFTFSTYTMHWVRQAPGKGLEYVSAISSDGYTTYSAKSVKGRFTISRDNSKNTLFLEMGSLRAEDTAVYYCARDLPYDAWRGTGMDVWGPGTTVTVSS
chain 2: QSVLTQPPSVSGAPGQRVTISCSGSRSDIGAGYDVHWYQQLPGTAPKLLIYGSRHRPSGVPDRFSGSKSGTSASLAITGLQAEDEADYYCQSYDSSLSGHVVFGEGTKLTVL
B12: BD55-6601 (protein)
chain 1: EVQLVESGGDLVQPGGSLRLSCSASGFTFSNYVMHWVRQAPGKGLECVSAITIDGSNTYYVDSVKGRFTVSRDNSKNTLYLQMSSLRTDDTAVYYCVKDFSSNYVHYYYYMDVWGKGTTVTVSS
chain 2: DIQMTQSPSSLPASVGDRVTITCRASQTISNYLNWYQQKTGKAPKLLIHSASTLHDGVPSRFSASGSGTDFTLTINSLQPEDFATYYCQQSSSTPLTFGGGTKVEI

In one assay the target is SARS-CoV-2 Omicron BA.1 spike pseudovirus. The assay can be described thus: pseudovirus neutralization IC50; higher = weaker neutralization. The protocol: (§1)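 Single-round VSV luciferase pseudovirus mixed with antibody dilutions for 1 h and put on Huh-7 cells for about a day; IC50 from the dose curve.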
Regarding B1, the “pseudovirus neutralization IC50” value is greater than 10 µg/mL.

Consider B2, for which the “pseudovirus neutralization IC50” value stood at 2.98 µg/mL.

Regarding B3, the “pseudovirus neutralization IC50” value is greater than 10 µg/mL.

As to B4, the “pseudovirus neutralization IC50” value came to 2.09 µg/mL.

In the case of B5, the “pseudovirus neutralization IC50” value worked out at 1.07 µg/mL.

For the molecule B6, the “pseudovirus neutralization IC50” value is greater than 10 µg/mL.

Turning to B7, the “pseudovirus neutralization IC50” value is greater than 10 µg/mL.

Consider B8, for which the “pseudovirus neutralization IC50” value is greater than 10 µg/mL.

Turning to B9, the “pseudovirus neutralization IC50” value is greater than 10 µg/mL.

Consider B10, for which the “pseudovirus neutralization IC50” value was greater than 10 µg/mL.

On to B11, for which the “pseudovirus neutralization IC50” value is greater than 10 µg/mL.

Consider B12, for which the “pseudovirus neutralization IC50” value was 2.51 µg/mL.

A further assay deals with SARS-CoV-2 Omicron BA.2 spike pseudovirus. The description is as above. The procedure:
as §1
Take B1: the “pseudovirus neutralization IC50” value was greater than 10 µg/mL.

As to B2, the “pseudovirus neutralization IC50” value is greater than 10 µg/mL.

B3: the “pseudovirus neutralization IC50” value was greater than 10 µg/mL.

Consider B4, for which the “pseudovirus neutralization IC50” value is 1.68 µg/mL.

As to B5, the “pseudovirus neutralization IC50” value worked out at 1.06 µg/mL.

B6: the “pseudovirus neutralization IC50” value was greater than 10 µg/mL.

On to B7, for which the “pseudovirus neutralization IC50” value is greater than 10 µg/mL.

In the case of B8, the “pseudovirus neutralization IC50” value is greater than 10 µg/mL.

Turning to B9, the “pseudovirus neutralization IC50” value was greater than 10 µg/mL.

As to B10, the “pseudovirus neutralization IC50” value was greater than 10 µg/mL.

For B11, the “pseudovirus neutralization IC50” value was greater than 10 µg/mL.

With B12, the “pseudovirus neutralization IC50” value worked out at 4.59 µg/mL.

The target of another assay is SARS-CoV-2 Omicron BA.2.75 spike pseudovirus. The assay is described as above. The procedure:
as §1
For B1, the “pseudovirus neutralization IC50” value is greater than 10 µg/mL.

Turning to B2, the “pseudovirus neutralization IC50” value is greater than 10 µg/mL.

As to B3, the “pseudovirus neutralization IC50” value is greater than 10 µg/mL.

As to B4, the “pseudovirus neutralization IC50” value stood at 1.66 µg/mL.

Consider B5, for which the “pseudovirus neutralization IC50” value was 1.23 µg/mL.

With B6, the “pseudovirus neutralization IC50” value is greater than 10 µg/mL.

On to B7, for which the “pseudovirus neutralization IC50” value is greater than 10 µg/mL.

As for B8, the “pseudovirus neutralization IC50” value is greater than 10 µg/mL.

With B9, the “pseudovirus neutralization IC50” value was greater than 10 µg/mL.

As for B10, the “pseudovirus neutralization IC50” value was greater than 10 µg/mL.

For the molecule B11, the “pseudovirus neutralization IC50” value is greater than 10 µg/mL.

Turning to B12, the “pseudovirus neutralization IC50” value was found to be 5.63 µg/mL.

Another assay addresses SARS-CoV-2 Omicron BA.5 spike pseudovirus. The assay is described as above. The procedure:
as §1
Regarding B1, the “pseudovirus neutralization IC50” value was greater than 10 µg/mL.

With B2, the “pseudovirus neutralization IC50” value was greater than 10 µg/mL.

As for B3, the “pseudovirus neutralization IC50” value is greater than 10 µg/mL.

Regarding B4, the “pseudovirus neutralization IC50” value stood at 1.33 µg/mL.

As for B5, the “pseudovirus neutralization IC50” value was found to be 1.81 µg/mL.

As for B6, the “pseudovirus neutralization IC50” value is greater than 10 µg/mL.

With B7, the “pseudovirus neutralization IC50” value is greater than 10 µg/mL.

As to B8, the “pseudovirus neutralization IC50” value is greater than 10 µg/mL.

For the molecule B9, the “pseudovirus neutralization IC50” value was greater than 10 µg/mL.

Turning to B10, the “pseudovirus neutralization IC50” value is greater than 10 µg/mL.

With B11, the “pseudovirus neutralization IC50” value was greater than 10 µg/mL.

As for B12, the “pseudovirus neutralization IC50” value came to 8.41 µg/mL.

For a further assay, the target named is SARS-CoV-2 Omicron BQ.1.1 spike pseudovirus. Described as above. The procedure:
as §1
With B1, the “pseudovirus neutralization IC50” value is greater than 10 µg/mL.

As for B2, the “pseudovirus neutralization IC50” value was greater than 10 µg/mL.

In the case of B3, the “pseudovirus neutralization IC50” value was greater than 10 µg/mL.

Consider B4, for which the “pseudovirus neutralization IC50” value was greater than 10 µg/mL.

For B5, the “pseudovirus neutralization IC50” value turned out to be 1.06 µg/mL.

For B6, the “pseudovirus neutralization IC50” value was greater than 10 µg/mL.

For the molecule B7, the “pseudovirus neutralization IC50” value was greater than 10 µg/mL.

For the molecule B8, the “pseudovirus neutralization IC50” value is greater than 10 µg/mL.

For the molecule B9, the “pseudovirus neutralization IC50” value is greater than 10 µg/mL.

Regarding B10, the “pseudovirus neutralization IC50” value was greater than 10 µg/mL.

With B11, the “pseudovirus neutralization IC50” value is greater than 10 µg/mL.

In the case of B12, the “pseudovirus neutralization IC50” value is greater than 10 µg/mL.

Another assay concerns the target SARS-CoV-2 Omicron XBB spike pseudovirus. The assay is described as above. The procedure: as §1
Turning to B1, the “pseudovirus neutralization IC50” value was greater than 10 µg/mL.

For B2, the “pseudovirus neutralization IC50” value is greater than 10 µg/mL.

For the molecule B3, the “pseudovirus neutralization IC50” value was greater than 10 µg/mL.

In the case of B4, the “pseudovirus neutralization IC50” value was greater than 10 µg/mL.

Turning to B5, the “pseudovirus neutralization IC50” value was determined as 1.49 µg/mL.

B6: the “pseudovirus neutralization IC50” value was greater than 10 µg/mL.

For the molecule B7, the “pseudovirus neutralization IC50” value was greater than 10 µg/mL.

Take B8: the “pseudovirus neutralization IC50” value is greater than 10 µg/mL.

In the case of B9, the “pseudovirus neutralization IC50” value is greater than 10 µg/mL.

As to B10, the “pseudovirus neutralization IC50” value is greater than 10 µg/mL.

B11: the “pseudovirus neutralization IC50” value is greater than 10 µg/mL.

Regarding B12, the “pseudovirus neutralization IC50” value was greater than 10 µg/mL.

In a further assay the target is SARS-CoV-2 early D614G spike pseudovirus. The description is as above. The protocol:
as §1
Take B1: the “pseudovirus neutralization IC50” value is greater than 10 µg/mL.

For B2, the “pseudovirus neutralization IC50” value worked out at 0.124 µg/mL.

For the molecule B3, the “pseudovirus neutralization IC50” value was found to be 1.8 µg/mL.

In the case of B4, the “pseudovirus neutralization IC50” value turned out to be 0.281 µg/mL.

Consider B5, for which the “pseudovirus neutralization IC50” value is 1.59 µg/mL.

For B6, the “pseudovirus neutralization IC50” value is greater than 10 µg/mL.

Turning to B7, the “pseudovirus neutralization IC50” value was greater than 10 µg/mL.

As to B8, the “pseudovirus neutralization IC50” value is greater than 10 µg/mL.

B9: the “pseudovirus neutralization IC50” value turned out to be 0.25 µg/mL.

Consider B10, for which the “pseudovirus neutralization IC50” value is greater than 10 µg/mL.

Take B11: the “pseudovirus neutralization IC50” value stood at 0.0986 µg/mL.

Regarding B12, the “pseudovirus neutralization IC50” value is 8.79 µg/mL.

These data come from the supplement of paper PMC9931576.
